Measured values from several laboratories, pooled; numbers as filed in NIAID ChemDB.

Common to all: target-level tests; agent: HIV-1; protein: Protease

Blank or dashed fields: not listed here.

{"compound": "CC(C)[C@H](NC(=O)[C@H](CCCN=C(N)N)NC(=O)N[C@@H](Cc1ccccc1)C(=O)O)C(=O)NC(C=O)Cc1ccccc1", "read by": "HPLC", "measure": "IC50", "value": "8.95 µM"}
{"compound": "CC(C)C[C@H](NC(=O)OCc1ccccc1)C(=O)N[C@H](C(=O)N[C@@H](Cc1ccccc1)[C@@H](O)[C@H](O)[C@H](Cc1ccccc1)NC(=O)[C@@H](NC(=O)[C@H](CC(C)C)NC(=O)OCc1ccccc1)C(C)C)C(C)C", "measure": "Ki", "value": "0.0014 µM"}
{"compound": "Nc1cccc(CN2C(=O)N(Cc3cccc(-c4ccn[nH]4)c3)[C@H](Cc3ccccc3)[C@H](O)[C@@H](O)[C@H]2Cc2ccccc2)c1", "read by": "fluorescence", "strain": "RF", "measure": "Ki", "value": "0.000035 µM"}
{"compound": "CC(C)CN(C[C@@H](O)[C@H](Cc1ccccc1)NC(=O)O[C@@]1(C)CO[C@@]2(C)OCC[C@]21C)S(=O)(=O)c1ccc(NC(=O)CNC(=O)OC(C)(C)C)cc1", "read by": "substrate cleavage / fluorescence", "measure": "Ki", "value": "0.00031 µM"}
{"compound": "CC(C)[C@H](NC(=O)OCc1cccnc1)C(=O)N[C@@H](Cc1ccccc1)[C@@H](O)[C@H](O)[C@H](Cc1ccccc1)NC(=O)[C@@H](NC(=O)OCc1cccnc1)C(C)C", "read by": "fluorescence", "measure": "IC50", "value": "<0.001 µM"}
{"compound": "O=C1N(Cc2cccc(/C(=N\\O)C(F)(F)F)c2)[C@H](Cc2ccccc2)[C@H](O)[C@@H](O)[C@@H](Cc2ccccc2)N1Cc1cccc(/C(=N\\O)C(F)(F)F)c1", "read by": "fluorescence", "strain": "RF", "measure": "Ki", "value": "0.0039 µM"}
{"compound": "CN(C)c1ccc(CNC(=O)[C@@H](NC(=O)Cc2ccccc2)[C@@H]2N[C@@H](C(=O)NC[C@@H](O)CN3C[C@H]4CCCC[C@H]4C[C@H]3C(=O)NC(C)(C)C)C(C)(C)S2)cc1", "strain": "RF", "measure": "IC50", "value": "0.0236 µM"}
{"compound": "CC(C)(C)OC(=O)N[C@@H](Cc1ccccc1)[C@@H](O)C[C@@H](CSc1ccccc1)C(=O)N[C@H](C(=O)NCCO)c1ccccc1", "read by": "HPLC", "measure": "IC50", "value": "0.0001–0.01 µM"}
{"compound": "O=C1N(Cc2cccc(-c3cn[nH]c3)c2)[C@H](Cc2ccccc2)[C@H](O)[C@@H](O)[C@@H](Cc2ccccc2)N1Cc1cccc(-c2cn[nH]c2)c1", "strain": "RF", "measure": "Ki", "value": "0.00062 µM"}
{"compound": "COc1ccc(S(=O)(=O)N(C[C@@H](O)[C@H](Cc2ccccc2)NC(=O)O[C@H]2CO[C@H]3OCC[C@H]32)CC(C)(C)CCC#N)cc1", "read by": "fluorescence", "measure": "Ki", "value": "<0.001 µM"}
{"compound": "CC(C)[C@H](NC(=O)[C@H](Cc1cccc2ccccc12)CS(=O)(=O)C(C)(C)C)C(=O)N[C@@H](Cc1ccccc1)[C@@H](O)[C@H](O)[C@H](Cc1ccccc1)NC(=O)[C@@H](NC(=O)[C@H](Cc1cccc2ccccc12)CS(=O)(=O)C(C)(C)C)C(C)C", "measure": "Ki", "value": "0.0003 µM"}
{"compound": "CC(=O)c1cccc(CN2C(=O)N(Cc3cccc(C(C)=O)c3)[C@H](Cc3ccccc3)[C@H](O)[C@@H](O)[C@H]2Cc2ccccc2)c1", "read by": "fluorescence", "strain": "RF", "measure": "Ki", "value": "0.00006 µM"}
{"compound": "CC(C)CN(C[C@@H](O)[C@H](Cc1ccccc1)NC(=O)[C@H](CC(N)=O)NC(=O)c1ccc2ccccc2n1)C(=O)NC(C)(C)C", "read by": "fluorescence", "measure": "Ki", "value": "0.003 µM"}
{"compound": "O=c1c(O)c(-c2ccccc2O)oc2ccccc12", "read by": "fluorescence", "measure": "IC50", "value": "12 µM"}
{"compound": "CC(C)(C)NC(=O)[C@@H]1CSCN1C(=O)[C@@H](O)[C@H](Cc1ccccc1)NC(=O)c1ccc(C(=O)O)cc1", "read by": "HPLC", "measure": "IC50", "value": ">5 µM"}
{"compound": "COC(=O)N[C@H](C(=O)NCCCC[C@@H](CO)N(CC(C)C)S(=O)(=O)c1ccc2c(c1)OCO2)C(c1ccccc1)c1ccccc1", "read by": "fluorescence", "strain": "NL4-3", "measure": "Ki", "value": "0.0016 µM"}
{"compound": "CC(C)[C@H](NC(=O)N(C)Cc1ccccn1)C(=O)N[C@@H](Cc1ccccc1)[C@H](O)[C@@H](O)[C@H](Cc1ccccc1)NC(=O)[C@@H](NC(=O)N(C)Cc1ccccn1)C(C)C", "read by": "fluorescence", "measure": "IC50", "value": "<0.001 µM"}
{"compound": "O=[P@]12O[C@@H]([C@@H](O)[C@@H](Cc3ccccc3)N1CC1CC1)[C@@H](Cc1ccccc1)N2CC1CC1", "read by": "substrate cleavage", "measure": "Ki", "value": "0.23 µM"}
{"compound": "CC(C)C[C@H](NC(=O)[C@H](Cc1ccccc1)C[C@H](O)[C@H](Cc1ccccc1)NC(=O)OC(C)(C)C)C(=O)NCc1ccccc1", "read by": "HPLC", "measure": "IC50", "value": "0.0014 µM"}
{"compound": "O=C(O)CCCCCC(O)CCCCCCCCC(O)CCCCCC(=O)O", "read by": "fluorescence", "measure": "IC50", "value": "90 µM"}
{"compound": "O=C1N(Cc2cccc(C(=O)C(F)(F)F)c2)[C@H](Cc2ccccc2)[C@H](O)[C@@H](O)[C@@H](Cc2ccccc2)N1Cc1cccc(C(=O)C(F)(F)F)c1", "read by": "fluorescence", "strain": "RF", "measure": "Ki", "value": "0.000037 µM"}
{"compound": "CCN(Cc1cccc(S(=O)(=O)[O-])c1)c1ccc(C(=C2C=CC(=[N+](CC)Cc3cccc(S(=O)(=O)O)c3)C=C2)c2ccc(S(=O)(=O)O)cc2)cc1", "read by": "fluorescence", "measure": "IC50", "value": "12 µM"}
{"compound": "O=[P@]12O[C@@H]([C@@H](O)[C@@H](Cc3ccccc3)N1Cc1ccc3ccccc3c1)[C@@H](Cc1ccccc1)N2Cc1ccc2ccccc2c1", "read by": "substrate cleavage", "measure": "Ki", "value": "0.66 µM"}
{"compound": "CC(C)[C@H](NC(=O)[C@H](CCCN=C(N)N)NC(=O)N[C@@H](Cc1ccccc1)C(=O)O)C(=O)N[C@H](CO)Cc1ccccc1", "read by": "HPLC", "measure": "IC50", "value": "64.3 µM"}
{"compound": "O=C1N(Cc2cccc(CO)c2)[C@H](Cc2ccccc2)[C@H](O)[C@@H](O)[C@@H](Cc2ccccc2)N1Cc1cccc(-c2ccn[nH]2)c1", "read by": "fluorescence", "strain": "RF", "measure": "Ki", "value": "0.00016 µM"}
{"compound": "CC(C)[C@H](NC(=O)CCN1CCOCC1)C(=O)N[C@@H](Cc1ccccc1)[C@@H](O)[C@H](O)[C@H](Cc1ccccc1)NC(=O)[C@@H](NC(=O)CCN1CCOCC1)C(C)C", "read by": "fluorescence", "measure": "IC50", "value": "<0.1 µM"}
{"compound": "O=C(O)CCCCCCCC(=O)O", "read by": "fluorescence", "measure": "IC50", "value": ">1000 µM"}
{"compound": "CC(C)CCC(O)C1(Cc2ccccc2)CS(=O)CC(CO)(Cc2ccccc2)C1O", "measure": "Ki", "value": "<25 µM"}
{"compound": "O=C1N(Cc2cccc(-c3nn[nH]n3)c2)[C@H](Cc2ccccc2)[C@H](O)[C@@H](O)[C@@H](Cc2ccccc2)N1Cc1cccc(-c2nn[nH]n2)c1", "strain": "RF", "measure": "Ki", "value": "0.0066 µM"}
{"compound": "CC(C)[C@H](NC(=O)OCc1ccccc1)C(=O)N[C@@H](CSc1ccccn1)[C@@H](O)[C@H](O)[C@H](CSc1ccccn1)NC(=O)[C@@H](NC(=O)OCc1ccccc1)C(C)C", "read by": "fluorescence", "measure": "IC50", "value": ">0.01 µM"}
{"compound": "CC(C)[C@H](NC(=O)OCc1ccccc1)C(=O)N[C@@H](Cc1ccccc1)C(O)[C@H](Cc1ccccc1)NC(=O)[C@@H](NC(=O)OCc1ccccc1)C(C)C", "read by": "HPLC", "measure": "Ki", "value": "0.01 µM"}
{"compound": "COc1ccc(S(=O)(=O)NC(N)=NCCC[C@H](NC(=O)N[C@@H](Cc2ccccc2)C(=O)OC(C)(C)C)C(=O)N[C@H](C(=O)N[C@H](CO)Cc2ccccc2)C(C)C)cc1", "read by": "HPLC", "measure": "IC50", "value": "68.2 µM"}
{"compound": "Cc1c(N)cccc1C(=O)N[C@@H](Cc1ccccc1)[C@H](O)C(=O)N1CSC[C@H]1C(=O)NC(C)(C)C", "read by": "HPLC", "measure": "IC50", "value": ">5 µM"}
{"compound": "NCCCC[C@H](N)C(=O)NC[C@H]1O[C@H](O[C@H]2[C@H](O)[C@@H](O)[C@H](N)C[C@@H]2N)[C@H](N)[C@@H](O)[C@@H]1O", "read by": "HPLC", "measure": "IC50", "value": ">100 µg/mL"}
{"compound": "Cc1cccc(C(=O)N[C@@H](Cc2ccccc2)[C@H](O)C(=O)N2CSC[C@H]2C(=O)NC(C)(C)C)c1C", "read by": "HPLC", "measure": "IC50", "value": ">5 µM"}
{"compound": "CC(C)(C)OC(=O)N[C@@H](Cc1ccccc1)[C@@H](O)C[C@@H](C/C=C/c1ccccc1)C(=O)N[C@H]1c2ccccc2[C@@H](O)[C@H]1O", "read by": "HPLC", "measure": "IC50", "value": "0.0001–0.01 µM"}
{"compound": "O=C(O)CCCCCC(=O)O", "read by": "fluorescence", "measure": "IC50", "value": ">1000 µM"}
{"compound": "Cc1cccc(C)c1OCC(=O)N[C@@H](Cc1ccccc1)[C@H](O)CN1CC[C@@H](Sc2ccncc2)C[C@H]1C(=O)NC(C)(C)C", "measure": "IC50", "value": "0.0033 µM"}
{"compound": "CCCCN1[C@H](Cc2ccccc2)[C@H](O)[C@@H]2O[P@]1(=O)N(CCCC)[C@@H]2Cc1ccccc1", "read by": "substrate cleavage", "measure": "Ki", "value": "0.35 µM"}
{"compound": "COc1cc(CN2C(=O)N(Cc3cccc(C(=O)Nc4cccc(C)n4)c3)[C@H](Cc3ccccc3)[C@H](O)[C@@H](O)[C@H]2Cc2ccccc2)cc(OC)c1", "read by": "fluorescence", "measure": "Ki", "value": "0.007 µM"}
{"compound": "CC(C)(C)NC(=O)[C@@H]1CSCN1C(=O)[C@@H](O)[C@H](Cc1ccccc1)NC(=O)c1ccccc1", "read by": "HPLC", "measure": "IC50", "value": "~5 µM"}
{"compound": "CC(C)[C@H](NS(=O)(=O)N(C)Cc1ccccn1)C(=O)N[C@@H](Cc1ccccc1)[C@H](O)[C@@H](O)[C@H](Cc1ccccc1)NC(=O)[C@@H](NS(=O)(=O)N(C)Cc1ccccn1)C(C)C", "read by": "fluorescence", "measure": "IC50", "value": "<0.05 µM"}
{"compound": "CC(C)(C)OC(=O)N[C@@H](CC1CCCCC1)[C@@H](O)CC(=O)N[C@@H](CCC(=O)O)C(=O)N[C@@H](Cc1ccccc1)C(N)=O", "read by": "HPLC", "measure": "IC50", "value": "0.0001–0.01 µM"}
{"compound": "CC(C)[C@H](NC(=O)OCc1ccccc1)C(=O)N[C@@H](Cc1ccccc1)C(=O)C(F)(F)CCc1ccccc1", "read by": "fluorescence", "measure": "IC50", "value": "<0.005 µM"}
{"compound": "O=c1cc(-c2ccc(O)cc2)oc2cc(O)cc(O)c12", "read by": "fluorescence", "measure": "IC50", "value": "60 µM"}
{"compound": "O=C(/C=C/c1ccc(O)c2c1[C@H](C(=O)O)[C@@H](c1ccc(O)c(O)c1)O2)O[C@H](Cc1ccc(O)c(O)c1)C(=O)O", "measure": "IC50", "value": ">100 µM"}
{"compound": "COc1cc(-c2cc(=O)c3c(O)c(OC)c(OC)c(OC)c3o2)cc(OC)c1OC", "read by": "fluorescence", "measure": "IC50", "value": "11 µM"}
{"compound": "COC(=O)c1ccc(CN2C(=O)N(Cc3ccc(C(=O)OC)cc3)[C@H](COc3ccccc3)[C@H](O)[C@@H](O)[C@H]2COc2ccccc2)cc1", "read by": "absorbance", "measure": "Ki", "value": "0.0092 µM"}

The first 7 rows once more:

compound	read by	strain	measure	value
CC(C)[C@H](NC(=O)[C@H](CCCN=C(N)N)NC(=O)N[C@@H](Cc1ccccc1)C(=O)O)C(=O)NC(C=O)Cc1ccccc1	HPLC		IC50	8.95 µM
CC(C)C[C@H](NC(=O)OCc1ccccc1)C(=O)N[C@H](C(=O)N[C@@H](Cc1ccccc1)[C@@H](O)[C@H](O)[C@H](Cc1ccccc1)NC(=O)[C@@H](NC(=O)[C@H](CC(C)C)NC(=O)OCc1ccccc1)C(C)C)C(C)C			Ki	0.0014 µM
Nc1cccc(CN2C(=O)N(Cc3cccc(-c4ccn[nH]4)c3)[C@H](Cc3ccccc3)[C@H](O)[C@@H](O)[C@H]2Cc2ccccc2)c1	fluorescence	RF	Ki	0.000035 µM
CC(C)CN(C[C@@H](O)[C@H](Cc1ccccc1)NC(=O)O[C@@]1(C)CO[C@@]2(C)OCC[C@]21C)S(=O)(=O)c1ccc(NC(=O)CNC(=O)OC(C)(C)C)cc1	substrate cleavage / fluorescence		Ki	0.00031 µM
CC(C)[C@H](NC(=O)OCc1cccnc1)C(=O)N[C@@H](Cc1ccccc1)[C@@H](O)[C@H](O)[C@H](Cc1ccccc1)NC(=O)[C@@H](NC(=O)OCc1cccnc1)C(C)C	fluorescence		IC50	<0.001 µM
O=C1N(Cc2cccc(/C(=N\O)C(F)(F)F)c2)[C@H](Cc2ccccc2)[C@H](O)[C@@H](O)[C@@H](Cc2ccccc2)N1Cc1cccc(/C(=N\O)C(F)(F)F)c1	fluorescence	RF	Ki	0.0039 µM
CN(C)c1ccc(CNC(=O)[C@@H](NC(=O)Cc2ccccc2)[C@@H]2N[C@@H](C(=O)NC[C@@H](O)CN3C[C@H]4CCCC[C@H]4C[C@H]3C(=O)NC(C)(C)C)C(C)(C)S2)cc1		RF	IC50	0.0236 µM

Neighbouring rows are from separate reports. Two numbers with a dash give a range or band. ICn: concentration for n% inhibition.